Pooled drug test results. Numbers come from NIAID ChemDB, via PubChem.

Common to all: growth or infection tests; organism: HIV-1

Lines come from different laboratories, so protocols vary. Two numbers with a dash give a range or band. An empty or dashed field is not shown. ECn: concentration that inhibits the pathogen or its effect by n%.

smiles	changes	cell line	setting	method	strain	measure	value
CCc1cc(CCc2nc3ccccc3o2)c(=O)[nH]c1C	RT-K103N Y181C	H9		p24	A17	EC95	100 µM
CCCCCCCCOC(=O)P(=O)(O)OC[C@H]1O[C@@H](n2cc(C)c(=O)[nH]c2=O)C[C@@H]1N=[N+]=[N-]		MT-4		cytopathic effect / MTT	IIIB	EC50	0.06 µM
CC[C@H]1C(=O)Nc2ccc(F)cc2N1C(=O)OC(C)C	RT-L100I	CEM		cytopathic effect	NNRTI-resistant	EC50	0.043 µM
Cc1ccc(/C=C/c2cc(C)c(Oc3ccnc(Nc4ccc(C#N)cc4)n3)c(C)c2)cc1	E138K	MT-4		MTT	IIIB	EC50	0.307 µM
CC(C)(C)NC(=O)[C@@H]1C[C@@H]2CCCC[C@@H]2CN1C[C@H](O)[C@H](Cc1ccccc1)NC(=O)[C@H](CC(N)=O)NC(=O)c1ccc2ccccc2n1		MT-4		p24 / luminescence	NL4-3	EC50	0.019 µM
Cc1cn([C@@H]2O[C@H](CO[Si](C)(C)C(C)(C)C)C3(OS(=O)(=O)C=C3N)[C@H]2O[Si](C)(C)C(C)(C)C)c(=O)n(C)c1=O		MT-4		cytopathic effect	IIIB	EC50	0.06 µM
Nc1ccn([C@H]2CC[C@@H](CO)O2)c(=O)n1		MT-4		cytopathic effect / MTT	IIIB	EC50	0.47–1.1 µM
Cc1cc2cccc(C)c2c(-n2c(C)nnc2SCC(=O)Nc2ccccc2Br)c1C	Y188L	HeLa				EC50	0.2 µM
CCc1cc(CCc2nc3c(Cl)ccc(Cl)c3o2)c(=S)[nH]c1C	RT-K103N Y181C	H9		p24	A17	EC50	<0.8 µM
Cc1cn(C2CC(N=[N+]=[N-])C(COP(=O)(OC[C@H]3O[C@@H](n4cc(C)c(=O)[nH]c4=O)C[C@@H]3N=[N+]=[N-])C(=O)OCCSC(=O)C(C)(C)C)O2)c(=O)[nH]c1=O		CEM + CEM-SS		RT activity	LAI	EC50	0.003 µM
O=Nc1c(-c2c(O)[nH]c3ccccc23)[nH]c2ccccc12		MDM	28 d	RT activity	SF162	EC50	<1 µM
CCNc1cccnc1N1CCN(C(=O)c2cc3cc(OC)ccc3[nH]2)CC1		CEM		syncytia	IIIB-TIBO(0.1)	EC50	0.12 µg/mL
CO[C@H]1/C=C/O[C@@]2(C)Oc3c(C)c(O)c4c(c3C2=O)C(=O)C(SCCOC(=O)CCC(=O)OC[C@H]2O[C@@H](n3cc(C)c(=O)[nH]c3=O)C[C@@H]2N=[N+]=[N-])=C(NC(=O)/C(C)=C\C=C\[C@H](C)[C@H](O)[C@@H](C)[C@@H](O)[C@@H](C)[C@H](OC(C)=O)[C@@H]1C)C4=O		C8166		p24	IIIB	EC50	0.04 µM
Cc1ccnc2c1NC(=O)c1cccnc1N2C1CC1	RT-V179N	CEM		syncytia	IIIB-Pyridinone(0.1)(RT-V179N	EC50	0.1 µg/mL
CN[C@@H](CS)C(=O)O		MT-4			LAV	EC50	>100 µg/mL
Cc1cc(C#Cc2ccc(N)cc2)cc(C)c1Oc1ccnc(Nc2ccc(C#N)cc2)n1	Y181C	MT-4		MTT	IIIB	EC50	0.227 µM
C=C1C[C@@H](n2cnc3c(=O)[nH]c(N)nc32)[C@@H]1CO		MT-4		cytopathic effect / MTT	IIIB	EC50	>100 µM
C=CCOc1ccccc1OCC(O)CNC(C)C		MT-4			LAV	EC50	>100 µg/mL
CO[C@H]1/C=C/O[C@@]2(C)Oc3c(C)c(O)c4c(c3C2=O)C(=O)C(SCCCCCCCOC(=O)CCCC(=O)OC[C@H]2O[C@@H](n3cc(C)c(=O)[nH]c3=O)C[C@@H]2N=[N+]=[N-])=C(NC(=O)/C(C)=C\C=C\[C@H](C)[C@H](O)[C@@H](C)[C@@H](O)[C@@H](C)[C@H](OC(C)=O)[C@@H]1C)C4=O		C8166		p24	IIIB	EC90	13 µM
CN(C)c1ccc(-n2c(SCC(=O)Nc3ccc(S(N)(=O)=O)cc3Cl)nnc2C(F)(F)F)c2ccccc12	Y188L	HeLa				EC50	0.007 µM
Nc1ncnc2c1ncn2CCOCP(=O)(O)O		CEM		syncytia	IIIB-TIBO(0.1)	EC50	18 µM
Cc1cn([C@H]2C[C@H](N=[N+]=[N-])[C@@H](CO)O2)c(=O)[nH]c1=O		MT-2		p24	IIIB	EC95	0.0695 µg/mL
CCCCCCCCCc1ccc(OCCOCCOCCOCCOCCOCCOCCOCCOCCO)cc1		PBMC		p24	IIIB	EC50	2.195 µM
CC(C)(C)NC(=O)[C@@H]1CN(C(C)(C)c2cc3cnccc3o2)CCN1C[C@@H](O)C[C@@H](Cc1ccccc1)C(=O)N[C@H]1c2ccccc2OC[C@H]1O	PR-L10I S37N M46I I54V Q58E L63P I64V V77I V82F L90M I93L				K-60C (PR L10I S37N M46I I54V Q58E L63P I64V V77I V82F L90M I93L)	EC50	<0.5 µM
COc1ccc(-n2c(C)nnc2SCC(=O)Nc2ccccc2Br)c2ccccc12	Y188L	HeLa				EC50	0.457 µM
CCOC(=O)P(=O)(OCc1ccc(Cl)cc1)OCc1ccc(Cl)cc1		CEM + CEM-SS		RT activity	LAI	EC50	>10 µM
CC[C@H](C)[C@H](NC(=O)c1ccccc1SSc1ccccc1C(=O)N[C@H](C(=O)O)[C@@H](C)CC)C(=O)O		CEM + CEM-SS		cytopathic effect / XTT	RF	EC50	6.5 µM
Cc1ccnc(N2C(=O)CSC2c2c(Cl)cccc2Cl)n1	RT-L100I	CEM		cytopathic effect		EC50	0.44 µM
Cc1occc1C(=S)Nc1ccc(Cl)c(/C=N/OC(C)(C)C)c1	RT-M184V	CEM		syncytia	IIIB	EC50	0.007 µg/mL
Cc1ccnc2c1NC(=O)c1cccnc1N2C1CC1		MT-4		cytopathic effect / MTT	IIIB	EC50	0.03 µM
Cc1cc(C)c2ccc(C)c(-n3c(SCC(=O)Nc4ccc(S(N)(=O)=O)cc4Cl)nnc3C(F)(F)F)c2n1	Y188L	HeLa				EC50	0.004 µM
Cc1cn([C@H]2C[C@H](N=[N+]=[N-])[C@@H](COP(=O)(O)C(=O)OCCSC(=O)C(C)(C)C)O2)c(=O)[nH]c1=O		CEM + CEM-SS		RT activity	LAI	EC50	2.1 µM
O=C1CSC(c2c(F)cccc2F)N1c1ncccn1		MT-4		cytopathic effect	IIIB	EC50	3.65 µM
Cn1ncc2c1S(=O)(=O)N(Cc1cccc(Cl)c1)C(=O)N2		MT-4		cytopathic effect / MTT	IIIB	EC50	>223.9 µM
COc1ccc(CN[C@@H](C(=O)N[C@H]2c3ccccc3C[C@H]2O)[C@H](O)[C@H](Cc2ccccc2)NC(=O)[C@@H](NC(=O)OCc2ccccc2)C(C)(C)C)cc1		Primary monocytes + Monocyte		p24	BaL	EC50	0.031 µM
Cc1cn([C@H]2C[C@H](N=[N+]=[N-])[C@@H](CO)O2)c(=O)[nH]c1=O		MT-4		cytopathic effect / MTT	IIIB	EC50	0.0019 µM
Cc1cn([C@H]2C[C@H](N=[N+]=[N-])[C@@H](CO)O2)c(=O)[nH]c1=O	RT-K103N	CEM		cytopathic effect		EC50	0.011 µM
Cc1cc(C#Cc2cccc(N)c2)cc(C)c1Oc1ccnc(NC2CCN(Cc3ccc(C#N)cc3)CC2)n1	F227L + V106A	MT-4		MTT	IIIB	EC50	>0.261 µM
Cc1ccnc2c1NC(=O)c1cccnc1N2C1CC1	RT-E138K	CEM		cytopathic effect		EC50	0.044 µM
C=C1C[C@@H](n2cnc3c(N)ncnc32)[C@@H]1CO		MT-4		cytopathic effect / MTT	IIIB	EC50	>100 µM
Cc1nnc(SCC(=O)Nc2ccc(S(N)(=O)=O)cc2Cl)n1-c1cccc2cccnc12	Y188L	HeLa				EC50	2.4 µM
Cn1ncc2c1S(=O)(=O)N(Cc1cccc(Cl)c1)C(=O)N2Cc1ccccc1Br		MT-4		cytopathic effect / MTT	IIIB	EC50	>252.3 µM
Cn1c(=O)c2c(ncn2C)n(C)c1=O		MT-4			LAV	EC50	>100 µg/mL
CC(C)(C)NC(=O)[C@@H]1CN(C(C)(C)c2cc3cnccc3o2)CCN1C[C@@H](O)C[C@@H](Cc1ccccc1)C(=O)N[C@H]1c2ccccc2C[C@H]1O	PR-M46I L63P V82T I84V				4X (PR M46I L63P V82T I84V) Recombinant	EC50	<0.625 µM
Fc1cccc(F)c1C1SCc2nc3ccccc3n21	RT-L100I	CEM		cytopathic effect		EC50	3.12 µM
Nc1ccn([C@H]2CC[C@@H](CO)O2)c(=O)n1		CEM		syncytia	IIIB	EC50	0.05 µM
COc1cc(C)nc(N2C(=O)CSC2c2c(Cl)cccc2Cl)n1	RT-L100I	CEM		cytopathic effect		EC50	0.38 µM
Cc1occc1C(=S)Nc1ccc(Cl)c(C(=O)OC2CCCC2)c1	RT-K103N	CEM		syncytia	IIIB	EC50	0.7 µg/mL
Cc1ccnc2c1NC(=O)c1cccnc1N2C1CC1		MT-4		cytopathic effect / MTT	IIIB	EC50	0.12 µM
Cc1cn([C@@H]2O[C@H](CO[Si](C)(C)C(C)(C)C)[C@@]3(OS(=O)(=O)C=C3N)[C@H]2O[Si](C)(C)C(C)(C)C)c(=O)[nH]c1=O		CEM		cytopathic effect	IIIB WT	EC50	0.034 µM
Cc1cn([C@H]2C[C@H](N=[N+]=[N-])[C@@H](CO)O2)c(=O)[nH]c1=O		MT-4		cytopathic effect / MTT	HE	EC50	0.003 µM
Cc1ccc2cccnc2c1-n1c(C)nnc1SCC(=O)Nc1ccc(S(N)(=O)=O)cc1Cl	Y188L	HeLa				EC50	0.389 µM
C=C(C)OC(=O)N1c2cc(Cl)ccc2NC(=S)C1(C)C		CEM		syncytia	IIIB Laboratory clade B	EC50	0.001 µg/mL
Cc1cccc(C)c1Oc1ccnc(Nc2ccc(C#N)cc2)n1	E138K	MT-4		MTT	IIIB	EC50	0.046 µM
COC(=O)N[C@H](C(=O)N[C@@H](Cc1ccccc1)[C@@H](O)CN(Cc1ccc(-c2ccccn2)cc1)NC(=O)[C@@H](NC(=O)OC)C(C)(C)C)C(C)(C)C		MT-2		p24 / luminescence	97ZA003	EC50	0.0028 µM
Nc1nc2c(ncn2C2CC(CO)(CO)C2)c(=O)[nH]1		MT-4		cytopathic effect / MTT	IIIB	EC50	>500 µM
Cn1ncc2c1S(=O)(=O)N(Cc1cccc(Cl)c1)C(=O)N2Cc1ccc(Cl)cc1Cl		MT-4		cytopathic effect / MTT	IIIB	EC50	>257.5 µM
NNC(=O)C(=O)NNc1ccccc1				luciferase / luminescence	NL4-3	EC50	7.11 µM
Cc1cc(C)nc(N2C(=O)CSC2c2c(Cl)cccc2Cl)n1	RT-Y188H	CEM		cytopathic effect		EC50	7.9 µM
CO[C@H]1/C=C/O[C@@]2(C)Oc3c(C)c(O)c4c(c3C2=O)C(=O)C(SCCOC(=O)CCCC(=O)OC[C@@H]2O[C@H](n3cc(C)c(=O)[nH]c3=O)C[C@H]2N=[N+]=[N-])=C(NC(=O)/C(C)=C\C=C\[C@H](C)[C@H](O)[C@@H](C)[C@@H](O)[C@@H](C)[C@H](OC(C)=O)[C@@H]1C)C4=O		C8166		p24	IIIB	EC90	6 µM
Cc1cn([C@H]2C[C@H](N=[N+]=[N-])[C@@H](CO)O2)c(=O)[nH]c1=O		MT-4		cytopathic effect / p24 / trypan blue	IIIB	EC90	0.37 µM
CC(C)Nc1cccnc1N1CCN(C(=O)c2cc3cc(NS(C)(=O)=O)ccc3[nH]2)CC1	RT-L100I	CEM		syncytia	IIIB	EC50	0.46 µg/mL
Cc1cc(C#N)cc(C)c1Oc1nc(Nc2ccc(C#N)cc2)nc(N)c1Br		HEK293T		luciferase	94ug 114.1.6 D (WT)	EC50	0.00247 µM
CC(C)(C)NCC(O)c1ccc(O)c(CO)c1		MT-4			LAV	EC50	>100 µg/mL
Cc1nnc(SCC(=O)Nc2ccc(S(N)(=O)=O)cc2Cl)n1-c1ccc(Cl)c2ccccc12	Y188L	HeLa				EC50	0.068 µM

The last 9 rows once more:

smiles	changes	cell line	setting	method	strain	measure	value
Cn1ncc2c1S(=O)(=O)N(Cc1cccc(Cl)c1)C(=O)N2Cc1ccc(Cl)cc1Cl		MT-4		cytopathic effect / MTT	IIIB	EC50	>257.5 µM
NNC(=O)C(=O)NNc1ccccc1				luciferase / luminescence	NL4-3	EC50	7.11 µM
Cc1cc(C)nc(N2C(=O)CSC2c2c(Cl)cccc2Cl)n1	RT-Y188H	CEM		cytopathic effect		EC50	7.9 µM
CO[C@H]1/C=C/O[C@@]2(C)Oc3c(C)c(O)c4c(c3C2=O)C(=O)C(SCCOC(=O)CCCC(=O)OC[C@@H]2O[C@H](n3cc(C)c(=O)[nH]c3=O)C[C@H]2N=[N+]=[N-])=C(NC(=O)/C(C)=C\C=C\[C@H](C)[C@H](O)[C@@H](C)[C@@H](O)[C@@H](C)[C@H](OC(C)=O)[C@@H]1C)C4=O		C8166		p24	IIIB	EC90	6 µM
Cc1cn([C@H]2C[C@H](N=[N+]=[N-])[C@@H](CO)O2)c(=O)[nH]c1=O		MT-4		cytopathic effect / p24 / trypan blue	IIIB	EC90	0.37 µM
CC(C)Nc1cccnc1N1CCN(C(=O)c2cc3cc(NS(C)(=O)=O)ccc3[nH]2)CC1	RT-L100I	CEM		syncytia	IIIB	EC50	0.46 µg/mL
Cc1cc(C#N)cc(C)c1Oc1nc(Nc2ccc(C#N)cc2)nc(N)c1Br		HEK293T		luciferase	94ug 114.1.6 D (WT)	EC50	0.00247 µM
CC(C)(C)NCC(O)c1ccc(O)c(CO)c1		MT-4			LAV	EC50	>100 µg/mL
Cc1nnc(SCC(=O)Nc2ccc(S(N)(=O)=O)cc2Cl)n1-c1ccc(Cl)c2ccccc12	Y188L	HeLa				EC50	0.068 µM